From ChEMBL document CHEMBL4811216, “Chemotherapy for human schistosomiasis: how far have we come? What's new? Where do we go from here?” (RSC Med Chem, 2020)

Columns and labels:
[1] = system: Schistosoma mansoni; assay: Antischistosomal activity against larva Schistosoma mansoni assessed as worm death at 5 uM measured after 48 hrs by stereomicroscopy relative to control
[2] = system: Schistosoma mansoni; assay: Antischistosomal activity against larva Schistosoma mansoni assessed as worm death at 3.125 uM measured after 48 hrs by stereomicroscopy relative to control

## CCNc1sc(Br)c([N+](=O)[O-])c1[N+](=O)[O-]
[1]
  mortality: 100%
[2]
  mortality: 100%
